Laboratory results from paper PMC8099175, “SARS-CoV-2 M^pro inhibitors with antiviral activity in a transgenic mouse model” (Science (New York, N.y.), 2021).

Test system: SARS-CoV-2–infected Vero E6 cells
Experiment: cell protection assay (CCK8)
Conditions: read-out: EC50, cell protection, MOI 0.1, 3 dpi

Compound: O=C[C@H](C[C@@H]1CCNC1=O)NC(=O)[C@H]1[C@@H]2CCC[C@H]2CN1C(=O)COc1ccc(Cl)cc1
- EC50: 670 nM
